Compound potency records, mixed from different reports. Data source: NIAID ChemDB in PubChem.

Common to all: whole-cell or culture tests; organism: HIV-1

An empty or dashed field is not shown. Lines come from different laboratories, so protocols vary. a–b is a range or a potency band. ECn is the concentration giving n% inhibition of infection, replication or growth.

{"compound": "Cc1cn([C@H]2C[C@H](F)[C@H](CO)O2)c(=O)[nH]c1=O", "read-out": "EC50", "result": ">1000 µM"}
{"compound": "CC(C)=CCN1Cc2cc(Cl)cc3[nH]c(=S)n(c23)C[C@@H]1C", "cells": "MT-4", "mutations": "RT-M41L T215Y", "read-out": "EC95", "result": "0.4 µM"}
{"compound": "[B-][P@](=O)(OC[C@H]1O[C@@H](n2cc(C)c(=O)[nH]c2=O)C[C@@H]1N=[N+]=[N-])OP(=O)(O)C(F)(F)P(=O)(O)O", "read by": "p24", "strain": "WEJO Clinical isolates", "cells": "PBMC", "read-out": "EC50", "result": "0.08 µM"}
{"compound": "Nc1ccn([C@H]2CC[C@@H](CO)O2)c(=O)n1", "read by": "cytopathic effect / MTT", "strain": "IIIB", "cells": "MT-4", "read-out": "EC50", "result": "0.4 µM"}
{"compound": "Nc1ncnc2c1ncn2C1CCC1", "read by": "cytopathic effect / MTT", "strain": "IIIB", "cells": "MT-4", "read-out": "EC50", "result": ">100 µM"}
{"compound": "Fc1cccc(F)c1C1SCc2nc3ccccc3n21", "read by": "cytopathic effect", "cells": "CEM", "mutations": "RT-L100I", "read-out": "EC50", "result": "3.12 µM"}
{"compound": "O=c1[nH]cnc2c1ncn2[C@H]1CC[C@@H](CO)O1", "read by": "p24", "strain": "HxB2D(RT-D67G)", "cells": "PBMC", "mutations": "RT-D67G", "read-out": "EC50", "result": "5 µM"}
{"compound": "Nc1ncnc2c1ncn2[C@@H]1C[C@H](CO)[C@H]1CO", "read by": "cytopathic effect / MTT", "strain": "IIIB", "cells": "MT-4", "read-out": "EC50", "result": "1.8 µM"}
{"compound": "CCCC1(CCc2ccccc2)CC(O)=C(C(c2cccc(NS(=O)(=O)c3cn(C)cn3)c2)C2CC2)C(=O)O1", "strain": "IIIB", "cells": "H9", "read-out": "EC50", "result": "<1 µM"}
{"compound": "C=C1[C@@H](CO)C[C@H]1n1cnc2c(N)ncnc21", "read by": "cytopathic effect / MTT", "strain": "IIIB", "cells": "MT-4", "read-out": "EC50", "result": "22 µM"}
{"compound": "CCC(c1ccccc1)c1c(O)c2ccccc2oc1=O", "cells": "PBMC", "read-out": "EC50", "result": "100–500 µM"}
{"compound": "Nc1ccn([C@@H]2CO[C@H](CO)S2)c(=O)n1", "read by": "p24", "strain": "HXB2D (RT-K65R)", "cells": "PBMC", "mutations": "RT-K65R", "read-out": "EC50", "result": "2.5 µM"}
{"compound": "C[C@H](Cn1cnc2c(N)ncnc21)OCP(=O)(O)O", "read by": "ATP", "strain": "IIIB", "cells": "MT-2", "read-out": "EC50", "result": "3.6 µM"}
{"compound": "CCCCCCCCCCCCCCCOP(=O)(OCc1ccc(OC(=O)CCCC)cc1)OP(=O)(O)OP(=O)(O)OC[C@@H]1C=C[C@H](n2cc(C)c(=O)[nH]c2=O)O1", "read-out": "EC50", "result": "0.25 µM"}
{"compound": "CC(=O)Nc1ccc(-n2nc3ccccc3n2)cc1", "read by": "MTT", "strain": "IIIB", "cells": "MT-4", "read-out": "EC50", "result": ">66 µM"}
{"compound": "Cc1cn([C@H]2C[C@H](N=[N+]=[N-])[C@@H](CO)O2)c(=O)[nH]c1=O", "read by": "cytopathic effect / MTT", "strain": "IIIB", "cells": "MT-4", "read-out": "EC50", "result": "0.017 µM"}
{"compound": "Nc1nc(NC2CC2)c2ncn([C@H]3C=C[C@@H](CO)O3)c2n1", "strain": "NL4-3", "cells": "MT-2", "read-out": "EC50", "result": "11.06 µM"}
{"compound": "O=C(O)C(=O)CC(=O)c1cc(OCc2ccccc2)cc(OCc2ccccc2)c1", "read by": "p24", "strain": "IIIB", "cells": "MT-4", "read-out": "EC95", "result": "17.4 µM"}
{"compound": "CC(C)=CCc1c(O)c(C(=O)C(C)C)c(O)c2c(-c3ccccc3)cc(=O)oc12", "read by": "luciferase", "strain": "NL4-3 Recombinant", "cells": "Jurkat cells", "read-out": "EC50", "result": ">1.25 µM"}
{"compound": "Nc1nc(=O)n([C@@H]2CO[C@H](CO)S2)cc1F", "read by": "p24", "strain": "HXB2D (RT-M184V)", "cells": "PBMC", "mutations": "RT-M184V", "read-out": "EC50", "result": "9 µM"}
{"compound": "C=C(C)/C=C/C[C@@H](C)[C@H]1CC[C@@]2(C)C3[C@@H](O)C=C4C(CC[C@H](O)C4(C)C)[C@]3(C=O)CC[C@]12C", "strain": "IIIB", "cells": "C8166", "read-out": "EC50", "result": "11.2 µg/mL"}
{"compound": "Nc1ccn([C@H]2CC[C@@H](CO)O2)c(=O)n1", "strain": "IIIB", "cells": "MT-4", "read-out": "EC50", "result": "2.2 µM"}
{"compound": "O=[N+]([O-])c1cccc2c1oc1cc(F)ccc12", "read by": "syncytia", "cells": "C8166", "read-out": "EC50", "result": "15.32 µg/mL"}
{"compound": "CCCCCCCCCCC1CN(C(=O)c2cc(OC)c(OC)c(OC)c2)CCN1C(=O)c1cc(OC)c(OC)c(OC)c1", "read by": "RT activity", "strain": "BaL", "cells": "Macrophage + Monocytes/macrophages", "read-out": "EC50", "result": ">10 µM"}
{"compound": "Cc1cn([C@H]2C[C@H](N=[N+]=[N-])[C@@H](CO)O2)c(=O)[nH]c1=O", "read by": "p24", "strain": "JR-CSF", "cells": "PBMC", "read-out": "EC50", "result": "0.001–0.003 µM"}
{"compound": "N#Cc1ccc2oc3ccccc3c2c1", "read by": "syncytia", "cells": "C8166", "read-out": "EC50", "result": "12.52 µg/mL"}
{"compound": "O=C(NCc1ccc(F)cc1)c1nc(N2CCCCS2(=O)=O)c2cccnc2c1O", "read by": "p24", "strain": "HXB2", "read-out": "EC50", "result": "0.004 µM"}
{"compound": "O=C1CN(C(=O)c2cc(-c3cc(F)cc(Cl)c3)n(-c3ccc(F)c(Cl)c3)n2)CN1", "read by": "luciferase / RT activity", "strain": "NL4-3", "cells": "MT-4", "mutations": "Lu164", "read-out": "EC50", "result": "0.0009 µM"}
{"compound": "N#Cc1ccc2oc3cc(F)ccc3c2c1", "read by": "syncytia", "cells": "C8166", "read-out": "EC50", "result": "12.99 µg/mL"}
{"compound": "CN(C)c1nc(N)nc2c1ncn2[C@H]1CC[C@@H](CO)O1", "strain": "NL4-3", "cells": "MT-2", "read-out": "EC50", "result": "16.56 µM"}
{"compound": "Nc1nc(NC2CC2)c2ncn([C@H]3C=C[C@@H](CO)C3)c2n1", "read by": "p24", "strain": "MDR769 Multidrug-resistant isolate", "cells": "PBMC", "read-out": "EC50", "result": "0.9 µM"}
{"compound": "Cc1cn([C@H]2C[C@H](N=[N+]=[N-])[C@H](CO)O2)c(=O)[nH]c1=O", "read-out": "EC50", "result": ">1000 µM"}
{"compound": "C#C[C@]1(CO)O[C@@H](n2ccc(N)nc2=O)[C@@H](O)[C@@H]1O", "read-out": "EC50", "result": "0.0115 µg/mL"}
{"compound": "CCCC1(CCC)CC(O)=C(Cc2cccc(NS(=O)(=O)c3cn(C)cn3)c2)C(=O)O1", "strain": "IIIB", "cells": "H9", "read-out": "EC50", "result": ">3 µM"}
{"compound": "Nc1nc(NC2CC2)c2ncn([C@H]3CC[C@@H](CO)O3)c2n1", "strain": "NL4-3", "cells": "MT-2", "read-out": "EC50", "result": "13.06 µM"}
{"compound": "CC1(C)C(=O)CCC2[C@]34CC[C@]5(C)C(=O)CC[C@@]5(C)C3C=C[C@@]21OC4=O", "strain": "IIIB", "cells": "C8166", "read-out": "EC50", "result": "61.3 µg/mL"}
{"compound": "c1cc(CN2CCCNCCNCCCNCC2)ccc1CN1CCCNCCNCCCNCC1", "read by": "cytopathic effect / MTT", "strain": "NL4-3", "cells": "MT-4", "mutations": "D-CA-resistant", "read-out": "EC50", "result": "0.02 µM"}
{"compound": "O=C(O)c1cc[c]([Sb](=[O])([OH])[OH])cc1[N+](=O)[O-]", "read by": "β-galactosidase", "strain": "NL4-3", "cells": "MAGI", "read-out": "EC50", "result": "2.47 µM"}
{"compound": "COc1ccc2oc3c([N+](=O)[O-])cccc3c2c1", "read by": "syncytia", "cells": "C8166", "read-out": "EC50", "result": "78.89 µg/mL"}
{"compound": "Nc1nc(=O)n([C@@H]2CS[C@H](CO)O2)cc1F", "strain": "74V (RT-L74V)", "cells": "HT4 + HT4 LacZ-1", "mutations": "RT-L74V", "read-out": "EC50", "result": "0.12 µM"}
{"compound": "O=[N+]([O-])c1ccc2oc3ccccc3c2c1", "read by": "syncytia", "cells": "C8166", "read-out": "EC50", "result": "36.39 µg/mL"}
{"compound": "CC(C)=CC(=O)C[C@@H](C)[C@H]1CC[C@@]2(C)C3C(=O)[C@@H]4O[C@]45C(CCC(=O)C5(C)C)[C@]3(C=O)CC[C@]12C", "strain": "IIIB", "cells": "C8166", "read-out": "EC50", "result": "40.5 µg/mL"}
{"compound": "Nc1ncnc2c1ncn2C1CC(CO)(CO)C1", "read by": "cytopathic effect / MTT", "strain": "IIIB", "cells": "MT-4", "read-out": "EC50", "result": ">500 µM"}
{"compound": "C[C@H](CO)[C@H]1CC[C@@]2(C)C3C=C[C@@]45OC(=O)[C@]3(CC[C@]12C)C4CCC(=O)C5(C)C", "strain": "IIIB", "cells": "C8166", "read-out": "EC50", "result": "17.5 µg/mL"}
{"compound": "Nc1ccn([C@H]2CO[C@@H](CO)S2)c(=O)n1", "read by": "p24", "strain": "HXB2D (RT-M184V)", "cells": "PBMC", "mutations": "RT-M184V", "read-out": "EC50", "result": "3 µM"}
{"compound": "Cc1ccnc2c1NC(=O)c1cccnc1N2C1CC1", "read by": "ELISA", "strain": "SF33", "cells": "TZM-bl", "read-out": "EC50", "result": "0.05 µM"}
{"compound": "CC(C)C[C@H](NC(=O)[C@@H](N)[C@@H](C)O)C(=O)N[C@@H](CC(N)=O)C(=O)N[C@@H](Cc1ccccc1)B(O)O", "read by": "cytopathic effect / XTT", "strain": "RF", "cells": "CEM + CEM-SS", "read-out": "EC50", "result": ">102 µM"}
{"compound": "C[C@H](C(=O)O)[C@H]1CC[C@@]2(C)C3C(=O)[C@H]4O[C@]45C(CCC(=O)C5(C)C)[C@]3(C=O)CC[C@]12C", "strain": "IIIB", "cells": "C8166", "read-out": "EC50", "result": "59.1 µg/mL"}
{"compound": "Cc1cn([C@H]2C=C[C@@H](CO)O2)c(=O)[nH]c1=O", "read by": "cytopathic effect / MTT", "strain": "IIIB", "cells": "MT-4", "read-out": "EC50", "result": "1.1 µM"}
{"compound": "Nc1nc(N)c2ncn([C@H]3C=C[C@@H](CO)O3)c2n1", "strain": "NL4-3", "cells": "MT-2", "read-out": "EC50", "result": "16.16 µM"}

The first 4 rows once more:

compound	read by	strain	cells	mutations	read-out	result
Cc1cn([C@H]2C[C@H](F)[C@H](CO)O2)c(=O)[nH]c1=O					EC50	>1000 µM
CC(C)=CCN1Cc2cc(Cl)cc3[nH]c(=S)n(c23)C[C@@H]1C			MT-4	RT-M41L T215Y	EC95	0.4 µM
[B-][P@](=O)(OC[C@H]1O[C@@H](n2cc(C)c(=O)[nH]c2=O)C[C@@H]1N=[N+]=[N-])OP(=O)(O)C(F)(F)P(=O)(O)O	p24	WEJO Clinical isolates	PBMC		EC50	0.08 µM
Nc1ccn([C@H]2CC[C@@H](CO)O2)c(=O)n1	cytopathic effect / MTT	IIIB	MT-4		EC50	0.4 µM